Anti-infective test results gathered from many reports (values: NIAID ChemDB through PubChem).

Common to all: growth or infection tests; organism: Mycobacterium avium; measure: MIC

Neighbouring rows are from separate reports.

O=C(Nc1ccccc1)c1ccccc1OP(=O)(Oc1ccccc1)c1ccccc1 ; strain: MY330/88 ; setting: 7 d ; result: 250 µM
CO[C@H]1/C=C/O[C@@]2(C)Oc3c(C)c(O)c4c(O)c(c(/C=N/N5CCN(C)CC5)c(O)c4c3C2=O)NC(=O)/C(C)=C\C=C\[C@H](C)[C@H](O)[C@@H](C)[C@@H](O)[C@@H](C)[C@H](OC(C)=O)[C@@H]1C ; strain: Isolate 90-0842 ; result: 30 µg/mL
CCn1cc(C(=O)O)c(=O)c2ccc(N3CC(O)C(O)C(O)C3)nc21 ; strain: PI4/44 ; result: >32 µg/mL
O=C(Nc1ccccc1)c1ccccc1OP(=O)(c1ccccc1)c1ccccc1 ; strain: MY330/88 ; setting: 7 d ; result: 125 µM
CC[C@@H](CO)NCCN[C@@H](CC)CO ; strain: 453 ; result: 16 µg/mL
CC[C@H]1OC(=O)[C@H](C)[C@@H](O[C@H]2C[C@@](C)(OC)[C@@H](O)[C@H](C)O2)[C@H](C)[C@@H](O[C@@H]2O[C@H](C)C[C@H](N(C)C)[C@H]2O)[C@](C)(OC)C[C@@H](C)C(=O)[C@H](C)[C@@H](O)[C@]1(C)O ; strain: 3351 ; read by: broth dilution / radiometric ; setting: pH 7.4 ; result: 0.5 µg/mL
CN[C@@H]1[C@H](O[C@H]2[C@H](O[C@H]3[C@H](O)[C@@H](O)[C@H](N=C(N)N)[C@@H](O)[C@@H]3N=C(N)N)O[C@@H](C)[C@]2(O)C=O)O[C@@H](CO)[C@H](O)[C@H]1O ; strain: 453-C clarithromycin-resistant ; result: 8 µg/mL
CC1CN(c2c(F)c(N)c3c(=O)c(C(=O)O)cn(C4CC4)c3c2F)CCN1C ; strain: 101 ; result: 0.25 µg/mL
O=C(Nc1ccc(Cl)c(Cl)c1)c1cc(Cl)ccc1OP(=O)(Oc1ccccc1)Oc1ccccc1 ; strain: MY330/88 ; setting: 7 d ; result: 16 µM
Cc1c(F)c(N2CCNC(C)C2)c(C(F)(F)F)c2c1c(=O)c(C(=O)O)cn2C1CC1 ; strain: PI2/8 ; result: 0.25 µg/mL
CC[C@H]1OC(=O)[C@H](C)[C@@H](O[C@H]2C[C@@](C)(OC)[C@@H](O)[C@H](C)O2)[C@H](C)[C@@H](O[C@@H]2O[C@H](C)C[C@H](N(C)C)[C@H]2O)[C@](C)(OC)C[C@@H](C)C(=O)[C@H](C)[C@@H](O)[C@]1(C)O ; strain: 453-C clarithromycin-resistant ; result: 512 µg/mL
CNC(C)C1CCN(c2c(F)c(N)c3c(=O)c(C(=O)O)cn(C4CC4)c3c2OC)C1 ; strain: PI2/8 ; result: 0.25 µg/mL
O=C(Nc1ccc(Br)cc1)c1cc(Cl)ccc1OP(=O)(OCc1ccccc1)OCc1ccccc1 ; strain: MY330/88 ; setting: 14 d ; result: 62.5 µM
CC(C)N=c1cc2n(-c3ccc(Cl)cc3)c3ccccc3nc-2cc1Nc1ccc(Cl)cc1 ; strain: 453 ; result: 0.06 µg/mL
O=C(Nc1ccc(Br)cc1)c1cc(Cl)ccc1OP(=O)(c1ccccc1)c1ccccc1 ; strain: MY330/88 ; setting: 7 d ; result: 16 µM
CC[C@H]1OC(=O)[C@H](C)[C@@H](O[C@H]2C[C@@](C)(OC)[C@@H](O)[C@H](C)O2)[C@H](C)[C@@H](O[C@@H]2O[C@H](C)C[C@H](N(C)C)[C@H]2O)[C@](C)(OC)C[C@@H](C)C(=O)[C@H](C)[C@@H](O)[C@]1(C)O ; strain: SMT ; result: 2 µg/mL
NC1CCCCN(c2c(F)cc3c(=O)c(C(=O)O)cn(C4CC4)c3c2F)C1=O ; strain: PI4/44 ; result: 4 µg/mL
O=C1c2cc(Cl)ccc2OP(=O)(c2ccccc2)N1c1ccc(Cl)cc1 ; strain: MY330/88 ; setting: 14 d ; result: 16 µM
O=C(O)c1cn(C2CC2)c2c(F)c(N3CCN4CCC3C4)c(F)cc2c1=O ; strain: RG1 ; result: 0.5 µg/mL

For reference, 3 entries again:

{"compound": "O=C(Nc1ccc(Br)cc1)c1cc(Cl)ccc1OP(=O)(OCc1ccccc1)OCc1ccccc1", "strain": "MY330/88", "setting": "14 d", "result": "62.5 µM"}
{"compound": "O=C1c2cc(Cl)ccc2OP(=O)(c2ccccc2)N1c1ccc(Cl)cc1", "strain": "MY330/88", "setting": "14 d", "result": "16 µM"}
{"compound": "CO[C@H]1/C=C/O[C@@]2(C)Oc3c(C)c(O)c4c(O)c(c(/C=N/N5CCN(C)CC5)c(O)c4c3C2=O)NC(=O)/C(C)=C\\C=C\\[C@H](C)[C@H](O)[C@@H](C)[C@@H](O)[C@@H](C)[C@H](OC(C)=O)[C@@H]1C", "strain": "Isolate 90-0842", "result": "30 µg/mL"}